A mixed list of measured activities; the numbers were collected in NIAID ChemDB.

Shared fields: tests in culture; agent: Mycobacterium tuberculosis

MIC bound comes from a single tested concentration. Rows are shuffled and stem from different studies. Inhibition is in % at the dose shown (toxicity tests: loss of growth or viability). Blank or dashed fields: not listed here. MIC50, MIC90 and the like: level of inhibition, or share of isolates inhibited. ECn is the concentration giving n% inhibition of infection, replication or growth.

smiles,setting,cell line,strain,mutations,dose,read by,endpoint,value
CNC(=O)c1nnn(Cc2ccc(OC)cc2)c1Cl,-,-,H37Rv,-,-,BACTEC,MIC bound,>12.5 µg/mL
O=[N+]([O-])c1cc(C(F)(F)F)cc2nc(C3=NCCO3)sc12,-,-,H37Rv,-,-,resazurin / absorbance,MIC80,1 µg/mL
CC(=O)Oc1c(Cl)cccc1C(=O)Nc1cccc(Cl)c1,-,-,My 331/88,-,-,-,MIC,4 µg/mL
CC(C(N)=S)c1nc2ncccc2[nH]1,-,-,H37Rv,-,-,-,MIC,31 µg/mL
CCCCCCc1ccc(NC(=O)NNC(=O)c2ccncc2)cc1,21 d,-,My 331/88,-,-,broth dilution,MIC100,62.5 µM
NC[C@H]1OB2OCCOC3C=CC(c4cccs4)=C1C23,-,-,H37Rv,-,-,resazurin / fluorescence,EC50,40.1 µM
CCCCS(=O)(=O)Nc1ccc2[nH]c(C(=O)OCC)c(C)c2c1,-,-,DRM167 32x2,P206T DG167-resistant,-,resazurin,MIC90,>100 µM
CC(C)C(=O)c1cn(-c2ccccc2)nn1,-,-,H37Rv,-,-,-,MIC,>12.5 µg/mL
O=[N+]([O-])c1cn2c(n1)OC[C@@H](OCc1ccc(OCc3ccccc3)cc1)C2,-,-,H37Rv-T3-Fgd1 (PA-824-resistant),-,-,-,MIC,0.2 µM
Cc1ccc(C2=N/C(=C/c3ccc(F)cc3)C(=O)O2)cc1,-,-,H37Rv,-,-,resazurin,MIC,16 µg/mL
CCC1(c2ccccc2)Sc2ccccc2-n2cccc2C1=O,-,-,H37Rv,-,-,BACTEC,MIC bound,>12.5 µg/mL
CCOC(=O)c1cn(NC(N)=O)nn1,-,-,H37Rv,-,-,-,MIC,>12.5 µg/mL
O=C1/C(=C\c2ccc([N+](=O)[O-])o2)Oc2cc(O)ccc21,-,-,H37Rv,-,-,BACTEC,MIC,≥12.5 µg/mL
CCCCCCCCC(CC)OC(=O)c1cnc(Cl)cn1,-,-,ATCC35801,-,-,-,MIC,1 µg/mL
O=C(c1ccc2ccccc2c1)c1cn(-c2ccc(Cl)cc2)nn1,-,-,H37Rv,-,12.5 µg/mL,-,inhibition,0%
CCCCCCCC(OC(=O)c1cnc(Cl)cn1)C(C)(C)C,-,-,ATCC 35828,-,-,-,MIC,8 µg/mL
CCC1Cn2cc([N+](=O)[O-])nc2O1,-,-,H37Rv-7A2 (PA-824-resistant),-,-,-,MIC,>100 µM
Nc1ccc2cc3[nH]c4cc(N)ccc4c3nc2c1,-,-,H37Rv,-,6.25 µg/mL,resazurin,inhibition,100%
CCCCNC(=O)c1cc([N+](=O)[O-])cc([N+](=O)[O-])c1,-,-,H37Rv,-,-,visual reading,MBC,0.5 µg/mL
Cn1cccc2nc(CC(=O)NN)nc1-2,-,-,109,-,-,-,MIC,250 µg/mL
Clc1ccc(Nc2nnc(-c3ccncc3)o2)cc1Cl,14 d,-,My 331/88,-,-,broth dilution,MIC100,>125 µM
CC(C)OC(=O)CC1COP(=O)(CO[C@H](C)Cn2cnc3c(N(C(=O)c4ccccc4)C(=O)c4ccccc4)ncnc32)OC1,-,HepaRG,Genotype D,-,1 µM,PCR,inhibition,≤30%
S=C1SCN(Cc2ccccc2)CN1C1CCCCC1,-,-,H37Rv,-,-,-,MIC,50 µg/mL
CC(=O)Oc1cc(Cl)ccc1C(=O)Nc1ccc(Br)cc1,-,-,My 331/88,-,-,-,MIC,2 µg/mL
O=C(NNC(=O)c1ccncc1)Nc1ccc(F)c(C(F)(F)F)c1,21 d,-,My 331/88,-,-,broth dilution,MIC100,32 µM
CCOC(=O)c1cn(O)nn1,-,-,H37Rv,-,12.5 µg/mL,-,inhibition,0%
CCCCOc1ccc(NC(=O)OCCC[NH+]2CCCCC2)cc1,-,-,My 331/88,-,-,-,MIC,62.5 µM
CC(C)(C)c1cnc(C(=O)Nc2cc(Br)c(O)c(Br)c2)cn1,-,-,H37Rv,-,6.25 µg/mL,-,inhibition,54%
O=C(c1nc2cc(C(F)(F)F)cc([N+](=O)[O-])c2s1)N1CCCCC1,-,-,H37Rv,-,-,resazurin / absorbance,MIC80,0.5 µg/mL
O=C(c1cn(-c2ccc(Cl)cc2)nn1)c1ccco1,-,-,H37Rv,-,-,-,MIC,>12.5 µg/mL
CCCC(=O)OCc1cc(=O)n(C)c2c3c4c(cc12)c(C)cc(=O)n4CO3,-,-,H37Rv,-,-,BACTEC,MIC bound,≤12.5 µg/mL
CCCCCCCCN1CN(CCC(=O)O)CSC1=S,-,-,H37Rv,-,-,-,MIC,25 µg/mL
Cc1ccc(C2=N/C(=C/c3ccc(Cl)cc3)C(=O)O2)cc1,-,-,H37Rv,-,-,resazurin,MIC,16 µg/mL
C/C(=N\N1CC(=O)NC1=O)c1ccc([N+](=O)[O-])o1,-,-,H37Rv,-,12.5 µg/mL,BACTEC,inhibition,86%
CC(=O)Oc1c(Cl)cccc1C(=O)Nc1ccc(Cl)cc1,-,-,My 331/88,-,-,-,MIC,4 µg/mL
O=C(N[C@@H](CO)C(=O)N1CCCC1)c1nc2cc(C(F)(F)F)cc([N+](=O)[O-])c2s1,-,-,H37Rv,-,-,resazurin / absorbance,MBC,1 µg/mL
COc1cc(NC(=O)c2cnc(C(C)(C)C)c(Cl)n2)cc(OC)c1,-,-,H37Rv,-,6.25 µg/mL,-,inhibition,0%
O=C(NNC(=O)c1ccncc1)Nc1ccc(Cl)c(Cl)c1,21 d,-,My 331/88,-,-,broth dilution,MIC100,125 µM
COc1ccc(NCCc2ccc(-n3ncc(C(=O)NN)c3N)nn2)cc1OC,-,-,H37Rv,-,12.5 µg/mL,BACTEC,inhibition,11%
CCCCS(=O)(=O)Nc1ccc2[nH]c(C(=O)NC3(C)CC3)c(C)c2c1,-,-,H37Rv,-,-,resazurin,MIC90,1.6 µM
CC(C)(C)OC(=O)NNS(=O)(=O)CCC(N)C(=O)O,-,-,H37Rv,-,12.5 µg/mL,BACTEC,inhibition,2%
O=C(O)C(Cc1ccccc1)N1CSC(=S)N(Cc2ccccc2)C1,-,-,H37Rv,-,-,-,MIC,50 µg/mL
O=C1c2cccnc2-c2nccc3c2c1nc1ccccc13,-,-,H37Rv,-,-,-,MIC,0.35 µM
Cc1ccc(C2=N/C(=C/c3ccc(C#N)cc3)C(=O)O2)cc1,-,-,H37Rv,-,-,resazurin,MIC,8 µg/mL
CO[C@@H]1[C@@H](OC(=O)c2ccc(C)[nH]2)[C@@H](O)C(Oc2ccc3c(O)c(NC(=O)c4c[nH]c(C(=O)Nc5c(O)c6ccc(OC7OC(C)(C)[C@H](OC)[C@@H](OC(=O)c8ccc(C)[nH]8)[C@H]7O)c(C)c6oc5=O)c4C)c(=O)oc3c2C)OC1(C)C,-,-,H37Rv,-,-,-,MIC,6.4 µg/mL
COc1ccccc1NC(=O)OCCC[NH+]1CCCCC1,-,-,My 331/88,-,-,-,MIC,250 µM
CSc1cnc2c3c(nc4ccccc4c13)C(CCNC(C)=O)CC2=O,-,-,H37Rv,-,-,-,MIC,>17 µM
Fc1cc(Nc2nnc(-c3ccncc3)o2)ccc1Br,14 d,-,My 331/88,-,-,broth dilution,MIC100,>125 µM
CCOc1cccc(NC(=O)OCCC[NH+]2CCCCC2)c1,-,-,My 331/88,-,-,-,MIC,125 µM
CCCCCC(CC)OC(=O)c1cnc(Cl)cn1,-,-,ATCC 35828,-,-,-,MIC,0.25 µg/mL
Nc1ccc(C(=O)N/C(=C\c2cccc([N+](=O)[O-])c2)c2nc3[nH]c(=S)[nH]c(=O)c3[nH]2)cc1,-,-,H37Rv,-,6.25 µg/mL,resazurin,inhibition,-27%
CCCCS(=O)(=O)Nc1ccc2[nH]c(C(=O)NC3CCCc4ccccc43)c(C)c2c1,-,-,H37Rv,-,-,resazurin,MIC90,6.25 µM
CN1/C(=C/C(=O)NN)N(C)c2ncccc21,-,-,H37Rv,-,-,-,MIC,500 µg/mL
Cc1c(C(F)(F)F)cc2nc(C3=N[C@H](C(=O)N4CCCC4)CO3)sc2c1[N+](=O)[O-],-,-,H37Rv,Overexpressing Rv3790 (DprE1),-,resazurin / absorbance,MIC80,>64 µg/mL
CCCCS(=O)(=O)Nc1ccc2[nH]c(CNS(C)(=O)=O)c(C)c2c1,-,-,H37Rv,-,-,resazurin,MIC90,>100 µM
COc1ccc(NC(=O)OCCC[NH+]2CCCCC2)cc1,-,-,My 331/88,-,-,-,MIC,500 µM
Cc1csc(NC(=O)c2cnccn2)n1,-,-,H37Rv,-,6.25 µg/mL,-,inhibition,0%
C[C@H]1COC2(CCN(c3nc(=O)c4cc(C(F)(F)F)cc([N+](=O)[O-])c4s3)CC2)O1,-,-,H37Rv,-,-,resazurin / absorbance,MIC80,0.004 µg/mL
CC(=O)Oc1cc(Cl)ccc1C(=O)Nc1ccc(C(F)(F)F)cc1,-,-,My 331/88,-,-,-,MIC,4 µg/mL
O=C(CNC1=NCCN1)Nc1ccc(NC(=O)c2ccc(C(=O)Nc3ccc(NC(=O)CNC4=NCCN4)cc3)cc2)cc1,-,-,H37Rv,-,-,BACTEC,MIC bound,≤12.5 µg/mL
CCn1cc(C(=O)O)c(=O)c2cc(F)c(N3CCN(C)CC3)cc21,-,-,21 strains,-,-,-,MIC50,4 µg/mL
CC(C)(C)c1ncc(C(=O)Nc2cc(Br)ccc2O)nc1Cl,-,-,H37Rv,-,6.25 µg/mL,-,inhibition,30%
Nc1ncnc(N)c1NC(=O)c1cccnc1,-,-,H37Rv,-,-,BACTEC,MIC,≥12.5 µg/mL
Cc1csc(NC(=O)c2cnc(C(C)(C)C)c(Cl)n2)n1,-,-,H37Rv,-,6.25 µg/mL,-,inhibition,52%
Nc1nc2n(n1)C(=O)C(=O)N2,-,-,H37Rv,-,12.5 µg/mL,BACTEC,inhibition,-6%
CC(C(=O)NN)c1nc2ncccc2[nH]1,-,-,109,-,-,-,MIC,125 µg/mL
COc1ccc(/C=C2/N=C(c3ccc(C)cc3)OC2=O)cc1,-,-,H37Rv,-,-,resazurin,MIC,4 µg/mL
NS(=O)(=O)c1cc2c(cc1Cl)NC(C(=O)c1cc(=O)c3ccc(O)cc3o1)=NS2(=O)=O,-,-,H37Rv,-,6.25 µg/mL,resazurin,inhibition,-17%
COc1cc(OC)c(/C=C2/N=C(c3ccc(C)cc3)OC2=O)c(OC)c1,-,-,H37Rv,-,-,resazurin,MIC,2 µg/mL
CCCCCCOC(=O)c1ccccc1,-,-,H37Rv,-,-,visual reading,MIC,>512 µg/mL
CC(C)(C)c1ncc(C(=O)Nc2ccc(Cl)c(Cl)c2)nc1Cl,-,-,H37Rv,-,6.25 µg/mL,-,inhibition,0%
CC(=O)Oc1cc(Cl)ccc1C(=O)N(C(C)=O)c1ccc(Br)cc1,-,-,My 331/88,-,-,-,MIC,4 µg/mL
CC(=O)c1cn(O)nn1,-,-,H37Rv,-,-,-,MIC,>12.5 µg/mL
O=C1CC(=O)OCCOCCOCCO1,-,-,H37Rv,-,12.5 µg/mL,BACTEC,inhibition,0%
CCCCS(=O)(=O)Nc1ccc2[nH]c(C(=O)N3CCC3)c(C)c2c1,-,-,H37Rv,-,-,resazurin,MIC90,0.78 µM
COC(=O)c1nc(C(=O)OC)c(C(=O)OC)nc1C(=O)OC,-,-,H37Rv,-,-,BACTEC,MIC,≥12.5 µg/mL
Cc1ccc(C2=N/C(=C/c3ccccc3)C(=O)O2)cc1,-,-,H37Rv,-,-,resazurin,MIC,16 µg/mL
CCOC(=O)CCSC1=CC(=O)c2nc3ccccc3c(C)c2C1=O,-,-,H37Rv,-,-,-,MIC,17.6 µM
CCCCCCCCN1COC2CCc3ccccc3C21,-,-,H37Rv,-,-,BACTEC,MIC,>6.25 µg/mL
CCOC(=O)CCSC1=CC(=O)c2nc3ccccc3c3ccnc1c23,-,-,H37Rv,-,-,-,MIC,2.1 µM
C=C1C(=O)OC2/C=C(/C)CC/C=C(/C)CC(OC(=O)/C(=C/CO)CO)C12,-,-,H37Rv,-,-,BACTEC,MIC bound,>12.5 µg/mL
CCCCCCCOc1ccc(NC(=O)OCCC[NH+]2CCCCC2)cc1,-,-,My 331/88,-,-,-,MIC,16 µM
Cc1ccc(SC2=CC(=O)c3nc4ccccc4c4ccnc2c34)cc1,-,-,H37Rv,-,-,-,MIC,2.2 µM
O=C(Nc1cc(Nc2ccc(NC(=O)c3ccccc3)c3c2C(=O)c2ccccc2C3=O)cc2c1C(=O)c1ccccc1C2=O)c1ccccc1,-,-,H37Rv,-,-,BACTEC,MIC bound,>12.5 µg/mL
O=C(Nc1cc(Br)ccc1O)c1cncc(Cl)n1,-,-,H37Rv,-,6.25 µg/mL,-,inhibition,0%
CC(=O)NCCC1C2=C3C(=NC=CC3C3C=CC=CC3N2)c2ncsc21,-,-,H37Rv,-,-,-,MIC,>34 µM
CCCCCCCCOc1ccccc1NC(=O)OCCC[NH+]1CCCCC1,-,-,My 331/88,-,-,-,MIC,8 µM
CC(C)C(=O)c1cn(-c2ccc(Cl)cc2)nn1,-,-,H37Rv,-,-,-,MIC,>12.5 µg/mL
CCCCCCCCCCCCOc1ccccc1NC(=O)OCCC[NH+]1CCCCC1,-,-,My 331/88,-,-,-,MIC,8 µM
Nc1cccc2c1nc(NCCO)c1ccccc12,-,-,H37Rv,-,-,BACTEC,MIC bound,>12.5 µg/mL
O=C1C=C(Sc2ccccc2)c2nccc3c2c1nc1ccccc13,-,-,H37Rv,-,-,-,MIC,18.4 µM

Repeating the first 8 entries:

smiles | setting | cell line | strain | mutations | dose | read by | endpoint | value
CNC(=O)c1nnn(Cc2ccc(OC)cc2)c1Cl | - | - | H37Rv | - | - | BACTEC | MIC bound | >12.5 µg/mL
O=[N+]([O-])c1cc(C(F)(F)F)cc2nc(C3=NCCO3)sc12 | - | - | H37Rv | - | - | resazurin / absorbance | MIC80 | 1 µg/mL
CC(=O)Oc1c(Cl)cccc1C(=O)Nc1cccc(Cl)c1 | - | - | My 331/88 | - | - | - | MIC | 4 µg/mL
CC(C(N)=S)c1nc2ncccc2[nH]1 | - | - | H37Rv | - | - | - | MIC | 31 µg/mL
CCCCCCc1ccc(NC(=O)NNC(=O)c2ccncc2)cc1 | 21 d | - | My 331/88 | - | - | broth dilution | MIC100 | 62.5 µM
NC[C@H]1OB2OCCOC3C=CC(c4cccs4)=C1C23 | - | - | H37Rv | - | - | resazurin / fluorescence | EC50 | 40.1 µM
CCCCS(=O)(=O)Nc1ccc2[nH]c(C(=O)OCC)c(C)c2c1 | - | - | DRM167 32x2 | P206T DG167-resistant | - | resazurin | MIC90 | >100 µM
CC(C)C(=O)c1cn(-c2ccccc2)nn1 | - | - | H37Rv | - | - | - | MIC | >12.5 µg/mL